From patent publication US10723727B2 (priority 2016, dated 2020)

Test: general procedure: solution-phase peptide synthesis; HATU/DIPEA; TPTU/DIPEA; pentafluorophenyl esters
Conditions: conjugation step, TFA salt (B1, B2, B3, B6)

Point of comparison: “1,2-dimethyl-D-prolyl-N-{(1R,3R)-1-[4-({(2R,4S)-4-carboxy-1-[4-({N-[6-(2,5-dioxo-2,5-dihydro-1H-pyrrol-1-yl)hexanoyl]glycyl}amino)phenyl]pentan-2-yl}carbamoyl)-1,3-thiazol-2-yl]-1-hydroxy-4-methylpentan-3-yl}-N-methyl-L-isoleucinamide”, conjugation yield 26%. Against it:
- 1,2-dimethyl-D-prolyl-N-[(1R,3R)-1-(acetyloxy)-1-(4-{[(2R,4S)-5-{(2Z)-2-[1-(4-{[5-(2,5-dioxo-2,5-dihydro-1H-pyrrol-1-yl)pentyl]oxy}phenyl)ethylidene]hydrazinyl}-4-methyl-5-oxo-1-phenylpentan-2-yl]carbamoyl}-1,3-thiazol-2-yl)-4-methylpentan-3-yl]-N-methyl-L-isoleucinamide — lower, 20%
- 1,2-dimethyl-D-prolyl-N-{(1R,3R)-1-(acetyloxy)-1-[4-({(2R,4S)-4-carboxy-1-[4-({N-[6-(2,5-dioxo-2,5-dihydro-1H-pyrrol-1-yl)hexanoyl]glycyl}amino)phenyl]pentan-2-yl}carbamoyl)-1,3-thiazol-2-yl]-4-methyl pentan-3-yl}-N-methyl-L-isoleucinamide — the same, 26%
- 1,2-dimethyl-D-prolyl-N-{(1R,3R)-1-[4-({(2R,4S)-4-carboxy-1-[4-({N-[6-(2,5-dioxo-2,5-dihydro-1H-pyrrol-1-yl)hexanoyl]glycyl}amino)phenyl]pentan-2-yl}carbamoyl)-1,3-thiazol-2-yl]-1-[(ethylcarbamoyl)oxy]-4-methylpentan-3-yl}-N-methyl-L-isoleuc — higher, 52%

Same assay, conditions: coupling step, TFA salt

Point of comparison: “N-[(1R,3R)-1-(acetyloxy)-4-methyl-1-(4-{[(2S)-1-phenyl-4-phosphonopentan-2-yl]carbamoyl}-1,3-thiazol-2-yl)pentan-3-yl]-N-methyl-N˜2˜-{[(2R)-1-methylpiperidin-2-yl]carbonyl}-L-isoleucinamide”, step yield 6.1%. Against it:
- 2-methyl-D-prolyl-N-[(1R,3R)-1-(acetyloxy)-1-(4-{[(2R,4S)-5-methoxy-4-methyl-5-oxo-1-phenylpentan-2-yl]carbamoyl}-1,3-thiazol-2-yl)-4-methylpentan-3-yl]-N-methyl-L-isoleucinamide — higher, 34%

Same assay, conditions: coupling step, TFA salt (B1, B2, B3, B6)

Point of comparison: “1,2-dimethyl-D-prolyl-N-[(1R,3R)-1-(acetylamino)-1-(4-{[(2R,4S)-5-ethoxy-4-methyl-5-oxo-1-phenylpentan-2-yl]carbamoyl}-1,3-thiazol-2-yl)-4-methylpentan-3-yl]-N-methyl-L-isoleucinamide”, step yield 49%. Against it:
- 1,2-dimethyl-D-prolyl-N-[(1R,3R)-1-(4-{[(2R,4S)-4-carboxy-1-phenylpentan-2-yl]carbamoyl}-1,3-thiazol-2-yl)-1-hydroxy-4-methylpentan-3-yl]-N-methyl-L-isoleucinamide — higher, 81%
- 1,2-dimethyl-D-prolyl-N-[(1R,3R)-1-(acetylamino)-1-(4-{[(2R,4S)-4-carboxy-1-phenylpentan-2-yl]carbamoyl}-1,3-thiazol-2-yl)-4-methylpentan-3-yl]-N-methyl-L-isoleucinamide — lower, 46%
- 1,2-dimethyl-D-prolyl-N-[(1R,3R)-1-(acetylamino)-1-(4-{[(2R,4S)-5-methoxy-4-methyl-5-oxo-1-phenylpentan-2-yl]carbamoyl}-1,3-thiazol-2-yl)-4-methylpentan-3-yl]-N-methyl-L-isoleucinamide — higher, 60%
- 1,2-dimethyl-D-prolyl-N-[(1R,3R)-1-(acetyloxy)-1-(4-{[(2R,4S)-1-(4-aminophenyl)-4-carboxypentan-2-yl]carbamoyl}-1,3-thiazol-2-yl)-4-methylpentan-3-yl]-N-methyl-L-isoleucinamide — higher, 80%
- 1,2-dimethyl-D-prolyl-N-[(1R,3R)-1-(acetyloxy)-1-(4-{[(2R,4S)-1-(4-{[N-(tert-butoxycarbonyl)-L-valyl-L-alanyl]amino}phenyl)-4-carboxypentan-2-yl]carbamoyl}-1,3-thiazol-2-yl)-4-methylpentan-3-yl]-N-methyl-L-isoleucinamide — higher, 57%
- 1,2-dimethyl-D-prolyl-N-[(1R,3R)-1-(acetyloxy)-1-(4-{[(2R,4S)-5-ethoxy-4-methyl-5-oxo-1-phenylpentan-2-yl]carbamoyl}-1,3-thiazol-2-yl)-4-methylpentan-3-yl]-N-methyl-L-isoleucinamide — lower, 7.7%
- 1,2-dimethyl-D-prolyl-N-[(1R,3R)-1-(acetyloxy)-1-(4-{[(2R,4S)-5-methoxy-4-methyl-5-oxo-1-phenylpentan-2-yl]carbamoyl}-1,3-thiazol-2-yl)-4-methylpentan-3-yl]-N-methyl-L-isoleucinamide — lower, 22%
- 2-methylalanyl-N-[(1R,3R)-1-(acetyloxy)-1-(4-{[(2R,4S)-5-methoxy-4-methyl-5-oxo-1-phenylpentan-2-yl]carbamoyl}-1,3-thiazol-2-yl)-4-methylpentan-3-yl]-N-methyl-L-isoleucinamide — lower, 31%
- 3-{2-[(2-{(1R,3R)-1-(acetyloxy)-4-methyl-3-[methyl(N-{[(2R)-1-methylpiperidin-2-yl]carbonyl}-L-isoleucyl)amino]pentyl}-1,3-thiazol-4-yl)carbonyl]-1-benzylhydrazinyl}-2-methylpropanoic Acid — lower, 12%
- (1R,3R)-1-(4-{[(2S,4R)-1-(4-aminophenyl)-4-(diethoxyphosphoryl)pentan-2-yl]carbamoyl}-1,3-thiazol-2-yl)-4-methyl-3-[methyl(N-{[(2R)-1-methylpiperidin-2-yl]carbonyl}-L-isoleucyl)amino]pentyl Acetate — lower, 39%
- (1R,3R)-1-(4-{[(2S,4S)-1-(4-aminophenyl)-4-(diethoxyphosphoryl)pentan-2-yl]carbamoyl}-1,3-thiazol-2-yl)-4-methyl-3-[methyl(N-{[(2R)-1-methylpiperidin-2-yl]carbonyl}-L-isoleucyl)amino]pentyl Acetate — lower, 30%
- N,N,-2-trimethylalanyl-N-[(1R,3R)-1-(acetyloxy)-1-(4-{[(2R,4S)-5-methoxy-4-methyl-5-oxo-1-phenylpentan-2-yl]carbamoyl}-1,3-thiazol-2-yl)-4-methylpentan-3-yl]-N-methyl-L-isoleucinamide — higher, 58%
- ethyl (2S,4R)-4-{[(2-{(1R,3R)-1-(acetyloxy)-4-methyl-3-[methyl(N-{[(2R)-1-methylpiperidin-2-yl]carbonyl}-L-isoleucyl)amino]pentyl}-1,3-thiazol-4-yl)carbonyl]amino}-2-methyl-5-{4-[(pyridin-2-yldisulfanyl)methyl]phenyl}pentanoate — lower, 30%
- methyl (2S,4R)-4-[({2-[(1R,3R)-1-(acetyloxy)-4-methyl-3-(methyl{N-[(2-methyl-2-azabicyclo[2.1.1]hex-1-yl)carbonyl]-L-isoleucyl}amino)pentyl]-1,3-thiazol-4-yl}carbonyl)amino]-2-methyl-5-phenylpentanoate — higher, 67%
- methyl (2S,4R)-4-[({2-[(1R,3R)-1-(acetyloxy)-4-methyl-3-(methyl{N-[(2-methyl-2-azabicyclo[3.1.1]hept-1-yl)carbonyl]-L-isoleucyl}amino)pentyl]-1,3-thiazol-4-yl}carbonyl)amino]-2-methyl-5-phenylpentanoate — higher, 65%
- methyl (2S,4R)-4-[({2-[(1R,3R)-1-(acetyloxy)-4-methyl-3-(methyl{N-[(9-methyl-9-azabicyclo[3.3.1]non-1-yl)carbonyl]-L-isoleucyl}amino)pentyl]-1,3-thiazol-4-yl}carbonyl)amino]-2-methyl-5-phenylpentanoate — higher, 65%
- methyl (2S,4R)-4-[({2-[(1R,3R)-1-(acetyloxy)-4-methyl-3-{methyl[(2S,3S)-3-methyl-2-{[(7-methyl-7-azabicyclo[2.2.1]hept-1-yl)carbonyl]amino}pentanoyl]amino}pentyl]-1,3-thiazol-4-yl}carbonyl)amino]-2-methyl-5-phenylpentanoate — higher, 60%

Same assay, conditions: coupling step, trifluoroacetate salt

Point of comparison: “methyl (2S,4R)-4-{[(2-{(1R,3R)-1-(acetyloxy)-3-[(N-{[1-(dimethylamino)cyclopentyl]carbonyl}-L-isoleucyl)(methyl)amino]-4-methylpentyl}-1,3-thiazol-4-yl)carbonyl]amino}-2-methyl-5-phenylpentanoate”, step yield 76%. Against it:
- 1,2-dimethyl-L-prolyl-N-[(1R,3R)-1-(acetyloxy)-1-(4-{[(2R,4S)-5-methoxy-4-methyl-5-oxo-1-phenylpentan-2-yl]carbamoyl}-1,3-thiazol-2-yl)-4-methylpentan-3-yl]-N-methyl-L-isoleucinamide — lower, 30%

Same assay, conditions: late stage modification step, TFA salt (B1, B2, B3, B6)

Point of comparison: “1,2-dimethyl-D-prolyl-N-[(1R,3R)-1-(acetyloxy)-1-(4-{[(2R,4S)-4-carboxy-1-phenylpentan-2-yl]carbamoyl}-1,3-thiazol-2-yl)-4-methylpentan-3-yl]-N-methyl-L-isoleucinamide”, step yield 90%. Against it:
- 1,2-dimethyl-D-prolyl-N-[(1R,3R)-1-(acetyloxy)-1-(4-{[(2R,4S)-5-hydrazinyl-4-methyl-5-oxo-1-phenylpentan-2-yl]carbamoyl}-1,3-thiazol-2-yl)-4-methylpentan-3-yl]-N-methyl-L-isoleucinamide — lower, 83%
- 1,2-dimethyl-D-prolyl-N-{(1R,3R)-1-[4-({(2R,4S)-4-carboxy-1-[4-(glycylamino)phenyl]pentan-2-yl}carbamoyl)-1,3-thiazol-2-yl]-1-[(ethylcarbamoyl)oxy]-4-methylpentan-3-yl}-N-methyl-L-isoleucinamide — lower, 62%
- N-(tert-butoxycarbonyl)-N-methyl-D-valyl-N-[(1R,3R)-1-(acetyloxy)-1-(4-{[(2R,4S)-4-carboxy-1-phenylpentan-2-yl]carbamoyl}-1,3-thiazol-2-yl)-4-methylpentan-3-yl]-N-methyl-L-isoleucinamide — higher, 100%
- N-methyl-D-valyl-N-[(1R,3R)-1-(acetyloxy)-1-(4-{[(2R,4S)-4-carboxy-1-phenylpentan-2-yl]carbamoyl}-1,3-thiazol-2-yl)-4-methylpentan-3-yl]-N-methyl-L-isoleucinamide — lower, 72%
